The values that follow come from article PMC6723440 (Toxins, 2019).

The conditions of data set [1]: human exposure studies to DON; cited from earlier work.
Data set [2] is described as follows: Phase I microsomal incubation (NADPH), LC-HRMS. The settings on record: incubation of AFB1, phase I.

In the case of `CC1=C[C@H]2O[C@@H]3[C@H](O[C@@H]4O[C@H](C(=O)O)[C@@H](O)[C@H](O)[C@H]4O)C[C@](C)([C@@]2(CO)[C@H](O)C1=O)[C@]31CO1`, the “predominant species in urine” value in data set [1] is 14%.
For `CC1=C[C@H]2O[C@@H]3[C@H](O)C[C@](C)([C@@]2(CO[C@@H]2O[C@H](C(=O)O)[C@@H](O)[C@H](O)[C@H]2O)[C@H](O)C1=O)[C@]31CO1`, the “predominant species in urine” value in data set [1] is recorded as 49%.
For `COc1cc2c(c3oc(=O)c4c(c13)CCC4O)C1C=COC1O2` (stereo not drawn), the “metabolite generated from AFB1” value in data set [2] is reported as less than 1%.
